Pooled drug test results. Numbers come from NIAID ChemDB, via PubChem.

Shared fields: toxicity to cultured cells; cells: H9; endpoint: CC50

Conditions beyond the fields shown may differ between rows.

compound,method,value
Oc1cc(O)c2c(c1)O[C@H](c1ccc(O)c(O)c1)[C@H](O)[C@H]2c1c(O)cc(O)c2c1O[C@@]1(c3ccc(O)c(O)c3)Oc3cc(O)c4c(c3[C@@H]2[C@H]1O)O[C@H](c1ccc(O)c(O)c1)[C@H](O)[C@H]4c1c(O)cc(O)c2c1O[C@H](c1ccc(O)c(O)c1)[C@H](O)C2,-,>25 µM
CC(C)[C@@H]1CC[C@]2(C(=O)OCc3ccccc3)CC[C@]3(C)[C@H](CC[C@@H]4[C@@]5(C)CC[C@H](OC(=O)CCCC(=O)O)C(C)(C)[C@@H]5CC[C@]43C)[C@@H]12,-,9.3 µM
CC1(C)Oc2ccc3ccc(=O)oc3c2[C@@H](OC(=O)C23CCC(C)(C(=O)O2)C3(C)C)[C@H]1OC(=O)C12CCC(C)(C(=O)O1)C2(C)C,-,54.7 µM
C=C(C)[C@@H]1CC[C@]2(COC(=O)CC3(CC(=O)O)CCCC3)CC[C@]3(C)[C@H](CC[C@@H]4[C@@]5(C)CCC(=O)C(C)(C)[C@@H]5CC[C@]43C)[C@@H]12,-,12.8 µM
CC1(C)Oc2ccc3cc(CBr)c(=O)oc3c2[C@@H](OC(=O)C23CCC(C)(C(=O)O2)C3(C)C)[C@H]1OC(=O)C12CCC(C)(C(=O)O1)C2(C)C,-,3.38 µM
CC(C)[C@@H]1CC[C@]2(C(=O)O)CC[C@]3(C)[C@H](CC[C@@H]4[C@@]5(C)CC[C@H](OC(=O)CCC(=O)O)C(C)(C)[C@@H]5CC[C@]43C)[C@@H]12,-,13.4 µM
C=C(C)[C@@H]1CC[C@]2(CO)CC[C@]3(C)[C@H](CC[C@@H]4[C@@]5(C)CC=CC(C)(C)[C@@H]5CC[C@]43C)[C@@H]12,-,28.3 µM
CC1(C)Oc2ccc3ccc(=O)oc3c2C(N=[N+]=[N-])C1O,-,335 µM
CCCCCCCCCCCCCCCCCCOC[C@H](CO[C@]1(C(=O)O)C[C@H](OS(=O)(=O)O)[C@@H](NC(C)=O)[C@H]([C@H](OS(=O)(=O)O)[C@@H](COS(=O)(=O)O)OS(=O)(=O)O)O1)OCCCCCCCCCCCCCCCCCC,-,>20 µM
COc1ccc(S(=O)(=O)Nc2cccc3cccnc23)cc1,ATP,>20 µM
C=C(C)[C@@H]1CC[C@]2(C(=O)O)CC[C@]3(C)[C@H](CC[C@@H]4[C@@]5(C)CC[C@H](OC(=O)C(C)(C)CC(=O)O)C(C)(C)[C@@H]5CC[C@]43C)[C@@H]12,-,15.9 µM
CCOC(=O)c1cc(C(=O)c2ccccc2)n2ccc(C(=O)N[C@@H](Cc3c[nH]c4ccccc34)C(=O)OC)cc12,MTT,139 µM
COc1c2c(cc3c1-c1c(cc4c(c1OC)OCO4)C(OC(=O)c1ccccc1)[C@@](C)(O)[C@@H](C)C3)OCO2,-,55 µg/mL
C=C(C)[C@@H]1CC[C@]2(C(=O)NCCCCCCCC(=O)N[C@@H](CC(C)C)[C@@H](O)CC(=O)O)CC[C@]3(C)[C@H](CC[C@@H]4[C@@]5(C)CC[C@H](O)C(C)(C)[C@@H]5CC[C@]43C)[C@@H]12,-,2.7 µM
CC1(C)Oc2ccc3cc(C(Br)Br)c(=O)oc3c2[C@@H](OC(=O)C23CCC(C)(C(=O)O2)C3(C)C)[C@H]1OC(=O)C12CCC(C)(C(=O)O1)C2(C)C,-,3.2 µM
O=S(=O)(Nc1cccc2cccnc12)c1ccc(F)cc1F,ATP,5.1 µM
CC(=O)OC1c2c(ccc3ccc(=O)oc23)OC(C)(C)C1OCc1ccccc1,-,87.4 µM
CCOC(=O)c1cc(C(=O)c2ccccc2N)n2ccc(C(=O)NCc3ccccn3)cc12,MTT,247.5 µM
Oc1cc(O)c2c(c1)O[C@@]1(c3ccc(O)c(O)c3)Oc3cc(O)c4c(c3[C@@H]2[C@H]1O)O[C@H](c1ccc(O)c(O)c1)[C@H](O)C4,-,>25 µM
O=S(=O)(Nc1ccccc1)c1ccc(F)cc1F,ATP,>20 µM
COc1c(Br)c2c(c(OC)c1OC)-c1c(c(Br)c(OC)c(OC)c1OC)C[C@H](C)[C@H](C)C2,-,25 µg/mL
CC1(C)Oc2ccc3ccc(=O)oc3c2[C@@H](OC(=O)C23CCC(C)(C(=O)O2)C3(C)C)[C@H]1OC(=O)C12CCC(C)(C(=O)O1)C2(C)C,-,35 µM
CC(C)[C@@H]1CC[C@]2(C(=O)O)CC[C@]3(C)[C@H](CC[C@@H]4[C@@]5(C)CC[C@H](OC(=O)COCC(=O)O)C(C)(C)[C@@H]5CC[C@]43C)[C@@H]12,-,13.1 µM
CCOC(=O)c1cc(C(=O)c2ccc3ccccc3c2)n2ccc(C(=O)c3ccccc3)cc12,MTT,167.4 µM
CC1(C)Oc2ccc3ccc(=O)oc3c2[C@@H](OC(=O)C23CCC(C)(C(=O)O2)C3(C)C)[C@@H]1OC(=O)C12CCC(C)(C(=O)O1)C2(C)C,-,72.3 µM
CCN(c1cccc2cccnc12)S(=O)(=O)c1ccc(F)cc1F,ATP,>50 µM
COc1c(Br)c2c(c(OC)c1OC)-c1c(c(Br)c(OC)c(OC)c1OC)C[C@](C)(O)[C@@H](C)C2,-,25 µg/mL
OCC(S)CS,-,<5 µg/mL
CC(C)[C@@H]1CC[C@]2(C(=O)O)CC[C@]3(C)[C@H](CC[C@@H]4[C@@]5(C)CC[C@H](OC(=O)C67CCC(C)(C(=O)O6)C7(C)C)C(C)(C)[C@@H]5CC[C@]43C)[C@@H]12,-,1 µM
O=C1CCC(=O)N1CCCCCCc1ccc2c3ccccc3c3ccccc3c2c1,trypan blue,>100 µM
CCOC(=O)c1cc(C(=O)c2ccc3c(c2)OCO3)n2ccc(C(=O)NCc3ccccn3)cc12,MTT,139.2 µM
C/C=C(/C)C(=O)O[C@@H]1c2c(ccc3ccc(=O)oc23)OC(C)(C)[C@@H]1OC(C)=O,-,20.7 µM
CC1(C)CC=C(c2cn(-c3nccc(C(=O)NC4CCC(N5CC6CCC(C5)O6)CC4)n3)c3ccc(F)c([C@H](OC(C)(C)C)C(=O)O)c23)CC1,luminescence,6.823 µM
CC(C)(C)c1ccc(C(=O)OC2c3c(ccc4ccc(=O)oc34)OC(C)(C)C2OC(=O)c2ccc(C(C)(C)C)cc2)cc1,-,3.08 µM
C=C(C)[C@@H]1CC[C@]2(COC(=O)CC(C)CC(=O)O)CC[C@]3(C)[C@H](CC[C@@H]4[C@@]5(C)CC[C@H](OC(=O)CC(C)CC(=O)O)C(C)(C)[C@@H]5CC[C@]43C)[C@@H]12,-,20.7 µM
CCOC(=O)c1cc(C(=O)c2ccc(F)cc2)n2ccc(C(=O)NCc3ccccn3)cc12,MTT,81.6 µM
CC(C)[C@@H]1CC[C@]2(COC(=O)CCC(=O)O)CC[C@]3(C)[C@H](CC[C@@H]4[C@@]5(C)CC[C@H](OC(=O)CCC(=O)O)C(C)(C)[C@@H]5CC[C@]43C)[C@@H]12,-,28.8 µM
CCCCCCCCCCOC[C@H](CO[C@]1(C(=O)O)C[C@H](OS(=O)(=O)O)[C@@H](NC(C)=O)[C@H]([C@H](OS(=O)(=O)O)[C@@H](COS(=O)(=O)O)OS(=O)(=O)O)O1)OCCCCCCCCCC,-,>200 µM
COc1c(Br)c2c(c(OC)c1OC)-c1c(c(Br)c3c(c1OC)OCO3)C[C@H](C)[C@@](C)(O)C2,-,9 µg/mL
O=S(=O)(Nc1cccc2cccnc12)c1ccccc1,ATP,>20 µM
O=C(O[C@@H]1[C@@H](c2c(O)cc(O)c3c2O[C@H](c2ccc(O)c(O)c2)[C@H](OC(=O)c2cc(O)c(O)c(O)c2)C3)c2c(O)cc(O)cc2O[C@@H]1c1ccc(O)c(O)c1)c1cc(O)c(O)c(O)c1,-,>25 µM
O=S(=O)(Nc1cccc2cccnc12)c1ccc(Cl)cc1,ATP,>20 µM
Oc1cc(O)c2c(c1)O[C@H](c1ccc(O)c(O)c1)[C@H](O)[C@H]2c1c(O)cc(O)c2c1O[C@H](c1ccc(O)c(O)c1)[C@H](O)[C@H]2c1c(O)cc(O)c2c1O[C@H](c1ccc(O)c(O)c1)[C@H](O)C2,-,>25 µM
Nc1ccn([C@@H]2CS[C@H](CO)O2)c(=O)n1,-,>30 µM
CN(c1cccc2cccnc12)S(=O)(=O)c1ccc(F)cc1F,ATP,>50 µM
CCOC(=O)c1cc(C(=O)c2ccccc2)n2ccc(C(=O)NCc3ccco3)cc12,MTT,98.2 µM
CCCCCCCCCCCCCCCCCCCCCC(=O)OC[C@H](CO[C@]1(C(=O)O)C[C@H](OS(=O)(=O)O)[C@@H](OS(=O)(=O)O)[C@H]([C@H](OS(=O)(=O)O)[C@@H](COS(=O)(=O)O)OS(=O)(=O)O)O1)OC(=O)CCCCCCCCCCCCCCCCCCCCC,-,>200 µM
COc1cc2c(c(OC)c1OC)-c1c(cc3c(c1OC)OCO3)C[C@H](C)[C@@](C)(O)C2,-,50 µg/mL
C=C(C)[C@@H]1CC[C@]2(COC(C)=O)CC[C@]3(C)[C@H](CC[C@@H]4[C@@]5(C)CC[C@H](OC(C)=O)C(C)(C)[C@@H]5CC[C@]43C)[C@@H]12,-,>189.8 µM
COc1cc2c(c(OC)c1OC)-c1c(cc3c(c1OC)OCO3)C(OC(=O)c1ccccc1)[C@@](C)(O)[C@@H](C)C2,-,1.8 µg/mL
C[C@@H]1CCO[C@H]2Cn3cc(C(=O)NCc4ccc(F)cc4F)c(=O)c(O)c3C(=O)N12,luminescence,1.302 µM

For reference, 5 entries again:

compound	method	value
CC1(C)Oc2ccc3cc(CBr)c(=O)oc3c2[C@@H](OC(=O)C23CCC(C)(C(=O)O2)C3(C)C)[C@H]1OC(=O)C12CCC(C)(C(=O)O1)C2(C)C	-	3.38 µM
CCOC(=O)c1cc(C(=O)c2ccc3ccccc3c2)n2ccc(C(=O)c3ccccc3)cc12	MTT	167.4 µM
CCOC(=O)c1cc(C(=O)c2ccccc2)n2ccc(C(=O)NCc3ccco3)cc12	MTT	98.2 µM
C[C@@H]1CCO[C@H]2Cn3cc(C(=O)NCc4ccc(F)cc4F)c(=O)c(O)c3C(=O)N12	luminescence	1.302 µM
CC1(C)Oc2ccc3ccc(=O)oc3c2[C@@H](OC(=O)C23CCC(C)(C(=O)O2)C3(C)C)[C@@H]1OC(=O)C12CCC(C)(C(=O)O1)C2(C)C	-	72.3 µM

CCn is the concentration with n% toxicity to the cells. Blank or dashed fields: not listed here.